{"source": "PubChem BioAssay AID624099 (ICCB-Longwood, 2012)", "test": "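Host factors E2 relies on to silence an HPV18 LCR reporter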 (primary screen)", "cell system": "human C33A cervical carcinoma cells (HPV-negative) stably expressing BPV1 E2 and an HPV18 LCR luciferase reporter", "reagents": "siRNA pool against human genes, 40 nM", "timing": "72 h", "read-out": "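HPV18 LCR reporter light per well, converted to plate-wise z-scores that exclude control wells, and averaged over triplicate plates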", "scale": "mean z-score and z-score: higher = stronger reporter signal, weaker E2 silencing", "call rule": "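Mean z ≥ 2 together with z ≥ 2 in two or more of the three replicates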", "note": "In all, the deposit lists about 21,000 reagents; below is a random part of them. 497 of all reagents (2.4%) were called active. 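Higher z means weaker E2 silencing; only reporter increases were scored, and knock-downs that hurt cell survival may mask genuine repressor factors.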 The numbers tell different reagents against one gene apart."}
{"target": "KLRD1 (killer cell lectin like receptor D1)", "pool no.": 1, "mean z-score": 1.19, "z-score, replicate A": 1.4, "z-score, replicate B": 1.01, "z-score, replicate C": 1.16, "outcome": "inactive"}
{"target": "SMDT1 (single-pass membrane protein with aspartate rich tail 1)", "pool no.": 1, "mean z-score": 0.28, "z-score, replicate A": 0.15, "z-score, replicate B": 0, "z-score, replicate C": 0.69, "outcome": "inactive"}
{"target": "ETV7 (ETS variant transcription factor 7)", "pool no.": 1, "mean z-score": 0.51, "z-score, replicate A": 0.89, "z-score, replicate B": 0.68, "z-score, replicate C": -0.04, "outcome": "inactive"}
{"target": "LOC283804", "pool no.": 1, "mean z-score": 0.09, "z-score, replicate A": 0.32, "z-score, replicate B": -0.65, "z-score, replicate C": 0.6, "outcome": "inactive"}
{"target": "LOC393078 (retired record)", "pool no.": 1, "mean z-score": -0.02, "z-score, replicate A": 0.05, "z-score, replicate B": -0.19, "z-score, replicate C": 0.08, "outcome": "inactive"}
{"target": "LOC393078 (retired record)", "pool no.": 2, "mean z-score": -0.35, "z-score, replicate A": -0.29, "z-score, replicate B": -0.5, "z-score, replicate C": -0.24, "outcome": "inactive"}
{"target": "TMEM39A (transmembrane protein 39A)", "pool no.": 1, "mean z-score": -0.48, "z-score, replicate A": -0.9, "z-score, replicate B": -0.8, "z-score, replicate C": 0.26, "outcome": "inactive"}
{"target": "MS4A14 (membrane spanning 4-domains A14)", "pool no.": 1, "mean z-score": 1.98, "z-score, replicate A": 1.91, "z-score, replicate B": 1.63, "z-score, replicate C": 2.38, "outcome": "inactive"}
{"target": "LOC389892 (retired record)", "pool no.": 1, "mean z-score": -0.05, "z-score, replicate A": -0.41, "z-score, replicate B": 0, "z-score, replicate C": 0.26, "outcome": "inactive"}
{"target": "TTLL3 (tubulin tyrosine ligase like 3)", "pool no.": 1, "mean z-score": -0.83, "z-score, replicate A": -0.93, "z-score, replicate B": -0.61, "z-score, replicate C": -0.95, "outcome": "inactive"}
{"target": "C2 (complement C2)", "pool no.": 1, "mean z-score": 1.33, "z-score, replicate A": 1.62, "z-score, replicate B": 0.84, "z-score, replicate C": 1.52, "outcome": "inactive"}
{"target": "HPCAL4 (hippocalcin like 4)", "pool no.": 1, "mean z-score": -1.05, "z-score, replicate A": -0.47, "z-score, replicate B": -1.17, "z-score, replicate C": -1.52, "outcome": "inactive"}
{"target": "SLC26A1", "pool no.": 1, "mean z-score": -0.99, "z-score, replicate A": -1.02, "z-score, replicate B": -0.99, "z-score, replicate C": -0.97, "outcome": "inactive"}
{"target": "RPL36A (ribosomal protein L36a)", "pool no.": 1, "mean z-score": -0.53, "z-score, replicate A": -0.58, "z-score, replicate B": -0.48, "z-score, replicate C": -0.54, "outcome": "inactive"}

Ordered by “z-score, replicate A” (low to high): 2 of the entries above.
{"target": "SLC26A1", "pool no.": 1, "mean z-score": -0.99, "z-score, replicate A": -1.02, "z-score, replicate B": -0.99, "z-score, replicate C": -0.97, "outcome": "inactive"}
{"target": "RPL36A (ribosomal protein L36a)", "pool no.": 1, "mean z-score": -0.53, "z-score, replicate A": -0.58, "z-score, replicate B": -0.48, "z-score, replicate C": -0.54, "outcome": "inactive"}
